pIC50: −log10 of the molar value. Values joined by “and” are separate entries in the source; they are usually repeats but may differ in a detail not shown here. Equal values may be shown once. Read-outs that look alike come from different tables or passages of the source.
How the values were obtained:
[1] = test system: HCMV expressing GFP (53-F BADGFP); settings: for ED50, HCMV plaque formation: HFF, automated plaque reduction assay, 6 dpi; for CC50/ED50: anti-HCMV ED50 (APRA) and parallel WST-1 CC50
HCMV UL50-UL53 = HCMV UL50-UL53 (Human cytomegalovirus, UniProt P16794); settings: for pIC50: read-out: IC50 (50% inhibitory concentration), HTRF assay
HFF cells = settings: for CC50: read-out: CC50, cytotoxicity on HFF, WST-1, six days, in parallel with automated plaque reduction assay
UL53_C214S+UL50 = UL53_C214S+UL50 (Human cytomegalovirus, UniProt P16794, C214S); assay: HTRF assay, UL53 mutant C214S with WT UL50; type: binding; settings: for effect of UL53 C214S substitution on inhibition of NEC interactions: HTRF, concentrations as high as 50 μM
UL53_C288S+UL50 = UL53_C288S+UL50 (Human cytomegalovirus, UniProt P16794, C288S); assay: HTRF assay, UL53 mutant C288S with WT UL50; type: binding; settings: 50.00 μM
HSV-1 P30-UL42 = HSV-1 P30-UL42 (Human herpesvirus 1, UniProt P10226)
UL53_C159S+UL50 = UL53_C159S+UL50 (Human cytomegalovirus, UniProt P16794, C159S); assay: HTRF assay, UL53 mutant C159S with WT UL50; type: binding

Sequences of proteins named here, by UniProt entry; tags and fusion partners are left off. Residues count along the entry.
UniProt P16794, 50-292 limits assumed: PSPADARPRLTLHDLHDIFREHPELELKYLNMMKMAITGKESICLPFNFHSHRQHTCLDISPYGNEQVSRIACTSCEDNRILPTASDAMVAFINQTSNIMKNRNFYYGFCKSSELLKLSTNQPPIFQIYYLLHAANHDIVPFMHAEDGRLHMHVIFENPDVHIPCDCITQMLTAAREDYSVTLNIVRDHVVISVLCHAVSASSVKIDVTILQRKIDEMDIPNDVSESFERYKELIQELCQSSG
UniProt P16794, 50-292 C214S limits assumed: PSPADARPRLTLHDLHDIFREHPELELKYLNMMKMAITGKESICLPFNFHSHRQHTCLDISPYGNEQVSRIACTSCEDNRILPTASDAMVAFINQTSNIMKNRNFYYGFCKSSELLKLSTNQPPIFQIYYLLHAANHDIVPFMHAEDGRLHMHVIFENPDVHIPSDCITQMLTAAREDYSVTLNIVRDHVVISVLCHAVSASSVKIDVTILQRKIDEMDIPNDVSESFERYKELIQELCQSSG
UniProt P16794, 50-292 C288S limits assumed: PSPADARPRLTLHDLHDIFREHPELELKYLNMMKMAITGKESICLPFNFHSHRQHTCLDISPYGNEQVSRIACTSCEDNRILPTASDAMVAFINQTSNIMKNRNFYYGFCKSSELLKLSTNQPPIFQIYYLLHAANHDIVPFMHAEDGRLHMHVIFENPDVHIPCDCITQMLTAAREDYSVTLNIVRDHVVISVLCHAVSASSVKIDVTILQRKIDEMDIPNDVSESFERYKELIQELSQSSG
UniProt P16794, 50-292 C159S limits assumed: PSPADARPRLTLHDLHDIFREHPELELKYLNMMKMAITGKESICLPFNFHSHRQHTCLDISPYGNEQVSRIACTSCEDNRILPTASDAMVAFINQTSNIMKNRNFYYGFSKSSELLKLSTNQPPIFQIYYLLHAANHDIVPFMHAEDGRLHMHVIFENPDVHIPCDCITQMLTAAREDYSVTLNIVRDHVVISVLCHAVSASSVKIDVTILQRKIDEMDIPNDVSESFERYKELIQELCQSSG
UniProt P10226, 1-340 limits assumed: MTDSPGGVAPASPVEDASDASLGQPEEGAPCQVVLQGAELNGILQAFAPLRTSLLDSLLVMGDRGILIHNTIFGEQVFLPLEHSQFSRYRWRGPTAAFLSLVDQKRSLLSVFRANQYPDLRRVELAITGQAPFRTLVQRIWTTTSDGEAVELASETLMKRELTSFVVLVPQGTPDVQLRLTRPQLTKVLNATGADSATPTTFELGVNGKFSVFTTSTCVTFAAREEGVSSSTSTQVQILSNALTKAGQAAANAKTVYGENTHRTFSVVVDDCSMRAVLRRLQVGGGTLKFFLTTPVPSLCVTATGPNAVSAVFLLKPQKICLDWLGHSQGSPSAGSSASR

| Compound | anti-HCMV, antiviral activities (S7 Fig) ([1]; 50.00 μM) | ED50, HCMV plaque formation [1] [µM] | pIC50 (HCMV UL50-UL53) | CC50 (HFF cells) [µM] | effect of UL53 C214S substitution on inhibition of NEC interactions (UL53_C214S+UL50) | CC50/ED50 [1] | also measured |
| --- | --- | --- | --- | --- | --- | --- | --- |
| CCN(CC)C/C=C/C(=O)Nc1ccc(Oc2cc(Cl)nc3[nH]ccc23)cc1 | – | – | – | – | – | – | ED50, HCMV plaque formation ([1]; tested form: TFA): 2 µM; CC50/ED50 ([1]; tested form: TFA): 5; pIC50 (HCMV UL50-UL53; tested form: TFA): < 4.30; CC50 (HFF cells; tested form: TFA): 10 µM |
| C=CC(=O)Nc1ccc(Oc2cc(C)nc3[nH]ccc23)cc1 | 0.0000 | 1.4 | 4.57 | 47 | not greatly reduced | – | anti-HCMV, antiviral activities (S7 Fig) ([1]; 0.40 μM): 59.0000 and 60.0000 and 65.0000; anti-HCMV, antiviral activities (S7 Fig) ([1]; 0.80 μM): 55.0000 and 60.0000; anti-HCMV, antiviral activities (S7 Fig) ([1]; 1.60 μM): 45.0000 and 50.0000; anti-HCMV, antiviral activities (S7 Fig) ([1]; 12.50 μM): 23.0000 and 25.0000 and 26.0000; cytotoxicity (S7 Fig) (HFF cells; 0.40 μM): 100.0000; cytotoxicity (S7 Fig) (HFF cells; 0.80 μM): 100.0000; cytotoxicity (S7 Fig) (HFF cells; 1.60 μM): 100.0000; cytotoxicity (S7 Fig) (HFF cells; 12.50 μM): 100.0000; cytotoxicity (S7 Fig) (HFF cells; 50.00 μM): 38.0000 and 45.0000 and 40.0000; UL53_C214S+UL50, inhibitory activities against the interaction (UL53_C214S+UL50; 1.56 μM): 119.0000 and 134.0000 and 125.0000; UL53_C214S+UL50, inhibitory activities against the interaction (UL53_C214S+UL50; 50.00 μM): 61.0000 and 74.0000 and 70.0000; UL53_C288S+UL50, inhibitory activities against the interaction (UL53_C288S+UL50): 72.0000 and 74.0000 and 75.0000; HSV1 P30-UL42, inhibitory activities in HTRF assay (HSV-1 P30-UL42; 0.40 μM, 0.4 µM): 102.0000 and 97.0000 and 100.0000; HSV1 P30-UL42, inhibitory activities in HTRF assay (HSV-1 P30-UL42; 0.80 μM, 0.8 µM): 103.0000 and 93.0000 and 99.0000; HSV1 P30-UL42, inhibitory activities in HTRF assay (HSV-1 P30-UL42; 1.60 μM, 1.6 µM): 107.0000 and 95.0000 and 102.0000; HSV1 P30-UL42, inhibitory activities in HTRF assay (HSV-1 P30-UL42; 6.25 μM): 104.0000 and 98.0000; HSV1 P30-UL42, inhibitory activities in HTRF assay (HSV-1 P30-UL42; 12.50 μM, 12.5 µM): 107.0000 and 96.0000 and 91.0000; HSV1 P30-UL42, inhibitory activities in HTRF assay (HSV-1 P30-UL42; 50.00 μM): 103.0000 and 89.0000 and 86.0000 |
| C=CC(=O)Nc1cccc(Oc2cc(N3CCC(O)CC3)nc3[nH]ccc23)c1 | – | 22 | 4.30 | > 50 | – | – | – |
| C=CC(=O)Nc1cccc(Oc2ncnc3[nH]ccc23)c1 | – | 18 | < 4.30 | 45 | – | 2.5 | – |
| C=CC(=O)Nc1ccc(Oc2cc(Cl)nc3[nH]ccc23)cc1 | – | 16 | < 4.30 | 38 | – | 2.4 | – |
| C=CC(=O)Nc1cccc(Oc2cccc3[nH]ccc23)c1 | – | 17.5 | 5.00 | 50 | – | 3 | – |
| C=CC(=O)Nc1cccc(Oc2cc(N3CCC(C(=O)O)CC3)nc3[nH]ccc23)c1 | – | > 50 | 4.30 | > 50 | – | – | – |
| C=CC(=O)Nc1cccc(Oc2cc(C)nc3[nH]ccc23)c1 | 0.0000 | 2.1 | 5.00 | 25 | essentially eliminated inhibition | – | HCMV UL50-UL53, inhibitory activities in HTRF assay (HCMV UL50-UL53; 1.6 µM): 86.0000 and 87.0000; WT, inhibitory activities against the interactions of WT UL50 and UL53 (HCMV UL50-UL53; 6.25 μM): 60.0000 and 61.0000; UL53_C159S+UL50, inhibitory activities against the interaction (UL53_C159S+UL50): 93.0000; HSV1 P30-UL42, inhibitory activities in HTRF assay (HSV-1 P30-UL42; 0.40 μM): 100.0000; HSV1 P30-UL42, inhibitory activities in HTRF assay (HSV-1 P30-UL42; 0.80 μM): 100.0000; HSV1 P30-UL42, inhibitory activities in HTRF assay (HSV-1 P30-UL42; 1.60 μM): 100.0000; HSV1 P30-UL42, inhibitory activities in HTRF assay (HSV-1 P30-UL42; 6.25 μM): 100.0000; HSV1 P30-UL42, inhibitory activities in HTRF assay (HSV-1 P30-UL42; 12.50 μM): 100.0000; HSV1 P30-UL42, inhibitory activities in HTRF assay (HSV-1 P30-UL42; 50.00 μM): 100.0000; HSV1 P30-UL42, inhibitory activities in HTRF assay (HSV-1 P30-UL42; […]): 100.0000; inhibition in the HSV-1 P30-UL42 counterscreen assay (HSV-1 P30-UL42; all concentrations tested (up to 50 μM)): without affecting P30-UL42 interactions |
| C=CC(=O)Nc1ccc(Oc2ccnc3[nH]ccc23)cc1 | 0.0000 | 1.8 | 4.77 | 33 | essentially eliminated inhibition | – | – |
| CCN(CC)C/C=C/C(=O)Nc1ccc(Oc2cc(C)nc3[nH]ccc23)cc1 | – | 2 | < 4.30 | 12 | – | 6 | – |
